Where only a bound is given, the exact number is not on record here.

For this data set, the system named is Acinetobacter baumannii versus human red blood cells. The data set is described as follows: Therapeutic index (HC50/MICGM). To be noted: for T.I.: HC50 (μM)/MICGM (μM), seven A. baumannii strains; for T.I. Fold Decrease: same peptide with and without specificity determinants.

Consider `CC(=O)N[C@H](CCCCN)C(=O)N[C@H](CC(C)C)C(=O)N[C@H](CCN)C(=O)N[C@H](CO)C(=O)N[C@H](CC(C)C)C(=O)N[C@H](CC(C)C)C(=O)N[C@H](CCN)C(=O)N[C@@H](C(=O)N[C@H](CC(C)C)C(=O)N[C@H](CO)C(=O)N[C@H](CCN)C(=O)N[C@H](C)C(=O)N[C@H](C)C(=O)N[C@H](C)C(=O)N[C@H](C)C(=O)N[C@H](C)C(=O)N[C@H](CC(C)C)C(=O)N[C@H](CCN)C(=O)N[C@@H](C(=O)N[C@H](CC(C)C)C(=O)N[C@H](CC(C)C)C(=O)N[C@H](CCN)C(=O)N[C@H](C)C(=O)N[C@H](CC(C)C)C(=O)N[C@H](CO)C(=O)N[C@H](CCN)C(N)=O)[C@H](C)O)[C@H](C)O` [D86(K13A/K16A)-(Lys^1-6Dab-1), Ac-KL(Dab)SLL(Dab)TLS(Dab)AAAAAL(Dab)TLL(Dab)ALS(Dab)-amide], for which the T.I. is recorded as 8.6 and the “T.I. Fold Decrease” value was over −86.3.
Turning to `CC(=O)N[C@H](CCCCN)C(=O)N[C@H](CC(C)C)C(=O)N[C@H](CN)C(=O)N[C@H](CO)C(=O)N[C@H](CC(C)C)C(=O)N[C@H](CC(C)C)C(=O)N[C@H](CN)C(=O)N[C@@H](C(=O)N[C@H](CC(C)C)C(=O)N[C@H](CO)C(=O)N[C@H](CN)C(=O)N[C@H](C)C(=O)N[C@H](C)C(=O)N[C@H](C)C(=O)N[C@H](C)C(=O)N[C@H](C)C(=O)N[C@H](CC(C)C)C(=O)N[C@H](CN)C(=O)N[C@@H](C(=O)N[C@H](CC(C)C)C(=O)N[C@H](CC(C)C)C(=O)N[C@H](CN)C(=O)N[C@H](C)C(=O)N[C@H](CC(C)C)C(=O)N[C@H](CO)C(=O)N[C@H](CN)C(N)=O)[C@H](C)O)[C@H](C)O` [D105(K13A/K16A)-(Lys^1-6Dap-1), Ac-KL(Dap)SLL(Dap)TLS(Dap)AAAAAL(Dap)TLL(Dap)ALS(Dap)-amide], the T.I. is on record as 2.2 and the “T.I. Fold Decrease” value was over −435.0.
